What was measured:
Assay in all cases: cross-reactivity ELISA on EDIII proteins (refers to Examples 1 and 2)
[1] = biological target: T1, DENV2 EDIII, polyhistidine-AviTag (Dengue virus 2, UniProt P29990 577-674)
T1 construct: domain: EDIII

[2] = biological target: T2, YFV (17D strain) EDIII, polyhistidine-AviTag (Yellow fever virus, 17D strain, UniProt P03314 580-677)
T2 construct: domain: EDIII

[3] = biological target: T3, YFV (Asibi strain) EDIII, polyhistidine-AviTag (Yellow fever virus, Asibi strain, UniProt Q6DV88 580-677)
T3 construct: domain: EDIII

[4] = biological target: T4, WNV EDIII, polyhistidine-AviTag (West Nile virus)
T4 chain: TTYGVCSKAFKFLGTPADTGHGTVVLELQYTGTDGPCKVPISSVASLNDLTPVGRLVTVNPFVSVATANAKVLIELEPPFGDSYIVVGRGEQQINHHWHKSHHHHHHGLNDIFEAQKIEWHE

[5] = biological target: T5, DENV3 EDIII, polyhistidine-AviTag (Dengue virus 3, UniProt Q6YMS4 575-672)
T5 construct: domain: EDIII

[6] = biological target: T6, DENV4 EDIII, polyhistidine-AviTag (Dengue virus 4, UniProt P09866 576-673)
T6 construct: domain: EDIII

Measured: binding result

B1: Z021 (MEX84_p4-23) (antibody, V domains shown)
VH: QVQLQESGPGLVKPSETLSLTCTVSGGSIDTYYWSWIRQTPGKGLEWIGCFYYSVDNHFNPSLESRVTISVDTSKNQFSLKMTSMTASDTAVYYCARNQPGGRAFDYWGPGTLVTVSS
VL: EIVLTQSPATLSLSPGQRATLSCRASQSVSNYFAWYQQKPGQAPRLLIYDTSKRATGTPARFSGSGSGTDFTLTISSLEPEDFAVYYCQERNNWPLTWTFGLGTKVEIK
no binding: all assays above
